According to patent US7235536B2, “Cellulose sulfate and other sulfated polysaccharides to prevent and treat papilloma virus infection and other infections” (Rush Presbyterian-St. Luke's Medical Center, priority 2000, dated 2007):

What was measured:
β-actin transcripts = test: RT-PCR ELISA, β-actin probe control; format: cell-based, human
HPV-11 = test: RT-PCR ELISA for transient infection of human A431 cells, HPV-11; format: cell-based, human papilloma virus; conditions: 1000 μg/ml; no virus
Experimental: Cellulose sulfate and dextran sulfate were each prepared as a 2 mg/ml solution in 0.9% NaCl and tested for microbicidal activity using the in vitro HPV transient infection assay originally described by Smith and colleagues (Smith, L. H., C. Foster, M. E. Hitchcock, and R. Isseroff. 1993. In vitro HPV-11 infection of human foreskin. J. Invest. Dermatol. 101:292-295) with some modifications (Ludmerer, S. W., W. L. McClements, X. M. Wang, J. C. Ling, K. U. Jansen, and N. D. Christensen. 2000. HPV11 mutant virus-like parties elicit immune responses that neutralize virus and delineate a novel neutralizing domain. Virology 266:237-245). An ELISA-based read-out of Optical Density (OD) values using alkaline phosphatase cleavage of the substrate p-nitrophenyl phosphate was also used to measure HPV infection as described below.
A modification of the RT-PCR assay that incorporates an ELISA-based read-out (Boehringer-Mannheim) was also included to assess microbicidal activity. Replicate cell cultures of A431 cells were infected with an aliquot of infectious HPV virions as described above. After 4 days of culture, cells were harvested and RNA extracted. […] Biotinylated products were detected in ELISA with plates coated with streptavidin (to capture the biotinylated target PCR product) then anti-DIG antibody and substrate. […]

| Substance | Mean (SD) of O.D. reading for RT-PCR ELISA, β-actin probe (β-actin transcripts; 10 μg/ml, with virus (HPV-11)) | Mean (SD) of O.D. reading for RT-PCR ELISA, β-actin probe (β-actin transcripts; 100 μg/ml, with virus (HPV-11)) | Mean (SD) of O.D. reading for RT-PCR ELISA, β-actin probe (β-actin transcripts; 1000 μg/ml, no virus) | Mean (SD) of O.D. reading for RT-PCR ELISA, HPV-11 probe (HPV-11) | Mean (SD) of O.D. reading for RT-PCR ELISA, β-actin probe (β-actin transcripts; 1000 μg/ml, with virus (HPV-11)) |
| --- | --- | --- | --- | --- | --- |
| Dextran sulfate | 1.636 (0.105) O.D. | 1.583 (0.022) O.D. | 1.470 (0.001) O.D. | 0.000 (0.000) O.D. | – |
| sodium cellulose sulfate | 1.576 (0.021) O.D. | 1.532 (0.025) O.D. | 1.427 (0.013) O.D. | 0.028 (0.004) O.D. | 1.518 (0.020) O.D. |
